Source: PubChem BioAssay AID1224833 (University of Georgia, 2016)
This is an unselected part of about 12,000 reagents. About 5,600 of them (46%) count as active. 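Active calls cover z-scores past 1 in both directions, so they include lowered as well as raised rotavirus replication.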 Entries without a mark were called inactive. Reagent sequences are not shown.

- Screen: 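Human genes whose knock-down alters rotavirus replication in monkey cells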 (primary screen)
- System: monkey MA104 kidney cells
- Reagents: siRNA pool against human genes, 50 nM
- Timing: 48 h knock-down before infection; read 24 h after infection
- Challenge: infection with rotavirus strain RV3 two days after transfection; infectious dose for this stage not given
- Detection: 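Rotavirus antigen per well by fluorescent immunoassay, normalised to non-targeting control wells on each plate and given as a standard z-score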
- Direction: z-score vs non-targeting control: higher = more rotavirus replication than with non-targeting control
- Hit rule: In these data the active calls have z-score vs non-targeting control at about -1 or lower, or at about 1 or higher
- Calls: active = z-score beyond 1 either way; inactive = z-score within 1 of zero

The opening 2 entries, ahead of the listing:
| Gene | z-score vs non-targeting control |
| --- | --- |
| DLX1 (GeneID 1745) | -0.11 |
| TRIM44 (GeneID 54765) | -0.569 |

The listing, from the first entry:
| Gene | z-score vs non-targeting control |
| --- | --- |
| DLX1 (GeneID 1745) | -0.11 |
| TRIM44 (GeneID 54765) | -0.569 |
| SLC12A8 (GeneID 84561) | 2.03 (active) |
| FSD1 (GeneID 79187) | -0.63 |
| KLHDC7A (GeneID 127707) | -1.18 (active) |
| CLN8 (GeneID 2055) | -1.03 (active) |
| SERPINB9 (GeneID 5272) | 0.544 |
| GAGE6 (GeneID 2578) | 0.547 |
| LEP (GeneID 3952) | -1.57 (active) |
| NOC3L (GeneID 64318) | 1.68 (active) |
| PPIH (GeneID 10465) | -0.563 |
| ABITRAM (GeneID 54942) | -2.05 (active) |
| ATP10D (GeneID 57205) | 0.808 |
| HEPACAM2 (GeneID 253012) | 1.78 (active) |
| PLD3 (GeneID 23646) | -1.37 (active) |
| PPID (GeneID 5481) | -1.15 (active) |
| MCM5 (GeneID 4174) | -1.27 (active) |
| OR10A3 (GeneID 26496) | -0.596 |
| AQP1 (GeneID 358) | -1.87 (active) |
| STAMBPL1 (GeneID 57559) | -2.84 (active) |
| DHFR2 (GeneID 200895) | 0.0387 |
| CYFIP1 (GeneID 23191) | -0.633 |
| HAVCR2 (GeneID 84868) | 0.739 |
| DEFA4 (GeneID 1669) | -1.24 (active) |
| PRR18 (GeneID 285800) | -2.79 (active) |
| OR2H1 (GeneID 26716) | 1.08 (active) |
| KLLN (GeneID 100144748) | 0.192 |
| FLACC1 (GeneID 130540) | 1.3 (active) |
| PRC1 (GeneID 9055) | -0.894 |
| MIA (GeneID 8190) | 0.395 |
| KRABD5 (GeneID 124411) | -1.84 (active) |
| CT45A3 (GeneID 441519) | 0.014 |
| NDST2 (GeneID 8509) | -1.96 (active) |
| SORBS1 (GeneID 10580) | -1.67 (active) |
| VAC14 (GeneID 55697) | 0.145 |
| WFIKKN2 (GeneID 124857) | -2.07 (active) |
| GRAMD2A (GeneID 196996) | -0.662 |
| CIDEA (GeneID 1149) | -1.69 (active) |
| CLDN2 (GeneID 9075) | -3.23 (active) |
| TET1 (GeneID 80312) | 0.372 |
| ZBTB14 (GeneID 7541) | -0.351 |
| DCLRE1A (GeneID 9937) | -1.52 (active) |
| DTNBP1 (GeneID 84062) | -2.43 (active) |
| SHISAL2A (GeneID 348378) | -0.886 |
| CCL28 (GeneID 56477) | -0.149 |
